Reference: patent publication US20240024446A1 (priority 2020, published 2024)

Assay: Toxicokinetics of unbound DON in plasma after immunisation (LC-MS/MS)
Type: in vivo
Conditions: pig plasma; DON bolus 0.05 mg/kg at 11 weeks of age; DON-KLH = pigs immunised IM at 3 and 6 weeks, DON = control pigs

CC1=C[C@H]2O[C@@H]3[C@H](O)C[C@](C)([C@@]2(CO)[C@H](O)C1=O)[C@]31CO1 [DON, deoxynivalenol]
tmax of unbound DON: 2.19 h
